Anti-infective test results gathered from many reports (values: NIAID ChemDB through PubChem).

All rows: tests on isolated targets; organism: HIV-1; protein: Protease; measure: IC50

ICn: concentration for n% inhibition.

SMILES | strain or isolate | changes | method | conditions | result
Cc1ccc(C(=O)C2NCCc3ccccc32)cc1C(=O)N[C@@H](Cc1ccccc1)[C@@H](O)CN1C[C@H]2CCCC[C@H]2C[C@H]1C(=O)NC(C)(C)C |  |  | fluorescence |  | 0.0027 µg/mL
Cc1cc(SC2=C(O)C[C@@](CCc3ccc(N)cc3)(C(C)C)OC2=O)c(C(C)(C)C)cc1CO | IIIB |  |  |  | 0.00009 µM
Cc1ccccc1-n1nnc(C(c2ccccc2)(c2ccccc2)n2ccnc2)c1C |  |  | substrate cleavage / fluorescence |  | 48.4 µM
Cc1cccc(C)c1OCC(=O)N[C@H](CCN1CC[C@@H](SCc2cccnc2)C[C@H]1C(=O)NC(C)(C)C)Cc1ccccc1 |  |  |  |  | ≤0.0036 µM
CCCCCCCCCCCCCCCC(=O)N[C@@H](Cc1ccccc1)C(=O)N[C@@H](CO)C(=O)N[C@@H](Cc1ccc(O)cc1)C(=O)N[C@@H](CCC(=O)O)C(=O)N[C@@H](CC(C)C)C(=O)O |  |  | fluorescence |  | ~0.1 µM
O=S1C[C@H](OCc2ccccc2)[C@H](O)[C@@H](O)[C@@H](OCc2ccccc2)[C@H]1Cc1ccccc1 |  |  | fluorescence |  | 2–10 µM
COc1ccc2nc(NC(=NCc3ccccc3)N[C@@H]3OC[C@@H](OC(C)=O)[C@H](OC(C)=O)[C@H]3OC(C)=O)sc2c1 |  |  |  |  | 139.2 µg/mL
CC(C)[C@H](NC(=O)c1cccnc1)C(=O)NC(Cc1ccccc1)C(O)C(O)C(Cc1ccccc1)NC(=O)[C@@H](NC(=O)c1cccnc1)C(C)C |  |  | fluorescence |  | <0.005 µM
CCCCN(CCCC)c1ccc(C2(O)CCN(CCCC(=O)c3ccc(F)cc3)CC2)cc1 |  |  |  |  | 35 µM
C[C@@H]1CC[C@]2(C(=O)O)CC[C@]3(C)C(=CC[C@@H]4[C@@]5(C)C[C@@H](O)[C@@H](O)C(C)(C)[C@@H]5CC[C@]43C)[C@@H]2[C@]1(C)O |  |  | HPLC |  | >17.9 µg/mL
CCC(C)[C@H](NC(=O)CCCCCCCCCCCCCCC(=O)N[C@H](C(=O)N[C@@H](CC(C)C)C(=O)N[C@@H](CC(N)=O)C(=O)N[C@@H](Cc1ccccc1)C(=O)O)C(C)O)C(=O)N[C@H](C(=O)N[C@@H](CC(C)C)C(=O)N[C@@H](Cc1c[nH]c2ccccc12)C(=O)O)C(C)O |  |  | fluorescence |  | 0.8 µM
CC(C)[C@H](NC(=O)N(C)Cc1ccccn1)C(=O)N[C@@H](Cc1ccccc1)[C@H](O)[C@H](O)[C@H](Cc1ccccc1)NC(=O)[C@@H](NC(=O)N(C)Cc1ccccn1)C(C)C |  |  | fluorescence |  | <0.001 µM
CC(C)(C)OC(=O)N[C@@H](Cc1ccccc1)[C@H](O)CNC[C@@H](O)[C@H](Cc1ccccc1)NC(=O)OCc1ccccc1 |  |  | HPLC | pH 5.5 | <10 µM
CC(C)CN(C[C@@H](O)[C@H](Cc1ccccc1)NC(=O)[C@H](CC(N)=O)NC(=O)c1ccc2ccccc2n1)C(=O)NC(C)(C)C |  |  | fluorescence |  | 0.0063 µM
CCNC(=O)[C@@H](NC(=O)Cc1ccccc1)[C@H]1N[C@@H](C(=O)NCCNC(=O)[C@@H]2N[C@H]([C@H](NC(=O)Cc3ccccc3)C(=O)NCC)SC2(C)C)C(C)(C)S1 | RF |  | radiometric |  | 1.3 µM
O=S1(=O)[C@H](Cc2ccccc2)[C@H](OCc2cccnc2)[C@H](O)[C@@H](O)[C@@H](OCc2cccnc2)[C@H]1Cc1ccccc1 |  |  | fluorescence |  | <2 µM
CC(C)[C@@H](NC(=O)OCc1ccccc1)C(=O)N[C@@H](Cc1ccccc1)[C@H](O)CNC[C@@H](O)[C@H](Cc1ccccc1)NC(=O)OC(C)(C)C |  |  | HPLC | pH 5.5 | ~10 µM
Cc1ccc(C(=O)NCc2ccccc2)cc1C(=O)N[C@@H](Cc1ccccc1)[C@@H](O)CN1C[C@H]2CCCC[C@H]2C[C@H]1C(=O)NC(C)(C)C |  |  | fluorescence |  | 0.278 µg/mL
N#Cc1ccccc1O[C@@H]1[C@H](O)[C@@H](O)[C@@H](Oc2ccccc2C#N)CS(=O)[C@@H]1Cc1ccccc1 |  |  | fluorescence |  | 10–50 µM
Cc1ccc(C(=O)N(C)C)cc1C(=O)N[C@@H](Cc1ccccc1)[C@@H](O)CN1C[C@H]2CCCC[C@H]2C[C@H]1C(=O)NC(C)(C)C |  |  | fluorescence |  | 0.185 µg/mL
CC(C)(C)OC(=O)N[C@@H](Cc1ccccc1)[C@@H](O)C[C@@H](Cc1ccc(OCc2nnnn2Cc2ccccc2)cc1)C(=O)N[C@H]1c2ccccc2C[C@H]1O |  |  | absorbance |  | 0.0004 µM
CC1(C)S[C@H]([C@H](NC(=O)Cc2ccccc2)C(=O)NCc2ccccc2)N[C@H]1C(=O)NCCNC(=O)[C@@H]1N[C@@H]([C@H](NC(=O)Cc2ccccc2)C(=O)NCc2ccccc2)SC1(C)C | RF |  | radiometric |  | 0.9 µM
CC(C)(C)OC(=O)N[C@@H](Cc1ccccc1)[C@@H](O)C[C@@H](Cc1ccc(OCP(=O)(OCc2ccccc2)OCc2ccccc2)cc1)C(=O)N[C@H]1c2ccccc2C[C@H]1O |  |  | absorbance |  | 0.0002 µM
CC(C)[C@H](NC(=O)OCc1ccccc1)C(=O)N[C@@H](CSc1ccccn1)[C@@H](O)[C@H](O)[C@H](CSc1ccccn1)NC(=O)[C@@H](NC(=O)OCc1ccccc1)C(C)C |  |  | fluorescence |  | >0.01 µM
Cc1ccc(C(=O)N2CCc3ccccc3C2)cc1C(=O)N[C@@H](Cc1ccccc1)[C@@H](O)Cc1ccccc1C(=O)NC(C)(C)C |  |  | fluorescence |  | 0.4 µg/mL
Cc1cccc(C)c1OCC(=O)N[C@@H](Cc1ccccc1)[C@H](O)CN1CC[C@@H](Sc2ccncc2)C[C@H]1C(=O)NC(C)(C)C |  |  |  |  | ≤0.0033 µM
CC(=O)NCC(=O)N[C@H](C(=O)N[C@@H](Cc1ccccc1)C(=O)C(F)(F)CCc1ccccc1)C(C)C |  |  | substrate cleavage |  | 0.0032 µM
O=S1(=O)[C@H](Cc2ccccc2)[C@H](Oc2ccccn2)[C@H](O)[C@@H](O)[C@@H](Oc2ccccn2)[C@H]1Cc1ccccc1 |  |  | fluorescence |  | <2 µM
CCCCNC(=O)C1(C)OC(=O)C(CCc2ccccc2)=C1O |  |  | fluorescence |  | >100 µM
Cc1cccc(C)c1OCC(=O)N[C@H](CCN1CC[C@@H](OCc2cccnc2)C[C@H]1C(=O)NC(C)(C)C)Cc1ccccc1 |  |  |  |  | ≤0.007 µM
CCCCCCCCCCCCCCCC(=O)N[C@@H](CO)C(=O)N[C@H](C(=O)N[C@@H](CCC(=O)O)C(=O)N[C@@H](CC(C)C)C(=O)O)c1ccc(OC(=O)c2ccccc2)cc1 |  |  | fluorescence |  | 0.4 µM
CC(C)(C)OC(=O)N[C@@H](Cc1ccccc1)C(=O)N[C@@H](Cc1ccccc1)[C@H](O)CNC[C@@H](O)[C@H](Cc1ccccc1)NC(=O)OC(C)(C)C |  |  | HPLC | pH 5.5 | ~10 µM
CC(C)(C)OC(=O)N[C@@H](Cc1ccccc1)[C@@H](O)C[C@@H](Cc1ccc(OCP(=O)(O)O)cc1)C(=O)N[C@H]1c2ccccc2C[C@H]1O |  |  | absorbance |  | 0.00006 µM
CCCCCCCCCCCCCCCC(=O)N[C@@H](CO)C(=O)N[C@@H](Cc1ccc(O)cc1)C(=O)N[C@@H](CCC(=O)O)C(=O)N[C@@H](CC(C)C)C(=O)O |  |  | fluorescence |  | ~0.3 µM
CCCCN(CCCC)c1cccc(C2(O)CCN(CCCC(=O)c3ccc(F)cc3)CC2)c1 |  |  |  |  | 75 µM
COc1ccc2nc(N/C(=N/[C@@H]3OC[C@@H](OC(C)=O)[C@H](OC(C)=O)[C@H]3OC(C)=O)NC(C)C)sc2c1 |  |  |  |  | 79.64 µg/mL
CC(C)[C@H](NC(=O)OCCN1CCOCC1)C(=O)N[C@@H](Cc1ccccc1)[C@H](O)[C@H](O)[C@H](Cc1ccccc1)NC(=O)[C@@H](NC(=O)OCCN1CCOCC1)C(C)C |  |  | fluorescence |  | >0.01 µM
CC(C)(C)OC(=O)N[C@@H](Cc1ccccc1)[C@H](O)CNC[C@@H](O)[C@H](Cc1ccccc1)NC(=O)[C@H](Cc1ccccc1)NC(=O)OCc1ccccc1 |  |  | HPLC | pH 5.5 | <10 µM
O=S1(=O)[C@H](Cc2ccccc2)[C@H](OCc2ccccc2)[C@H](O)[C@@H](O)[C@@H](OCc2ccccc2)[C@H]1Cc1ccccc1 |  |  | fluorescence |  | <2 µM
CC(=O)O[C@@H]1[C@@H](OC(C)=O)[C@H](OC(C)=O)CO[C@H]1NC(=NCc1ccccc1)Nc1nc2ccc(C)cc2s1 |  |  |  |  | 133 µg/mL
Cc1ccc(C(=O)N(C)Cc2ccccn2)cc1C(=O)N[C@@H](CSc1ccc2ccccc2c1)[C@@H](O)CN1C[C@H]2CCCC[C@H]2C[C@H]1C(=O)NC(C)(C)C |  |  | fluorescence |  | 0.0113 µg/mL
CC(C)CN(C[C@@H](O)[C@H](Cc1ccccc1)NC(=O)[C@H](CC(N)=O)NC(=O)c1ccc2ccccc2n1)C(=O)NC(C)(C)C |  | PR-V82A | HPLC |  | 0.0022 µM
C[C@H]1[C@H](C)CC[C@]2(C(=O)O)CC[C@]3(C)C(=CC[C@@H]4[C@@]5(C)CC[C@H](O)C(C)(C)[C@@H]5CC[C@]43C)[C@H]12 |  |  | HPLC |  | <17.9 µg/mL
N#Cc1ccccc1O[C@@H]1[C@H](O)[C@@H](O)[C@@H](Oc2ccccc2C#N)CS(=O)(=O)[C@@H]1Cc1ccccc1 |  |  | fluorescence |  | 2–10 µM
COc1ccc(S(=O)(=O)N(CC(C)C)CC(O)C(NC(=O)OCc2ccccc2)Sc2ccccc2)cc1 | BRU |  |  |  | 0.01–1 µM
Cc1ccnc(CO[C@@H]2[C@H](O)[C@@H](O)[C@@H](OCc3cc(C)ccn3)[C@@H](Cc3ccccc3)S(=O)(=O)[C@@H]2Cc2ccccc2)c1 |  |  | fluorescence |  | 10–50 µM
CN(C)CCNc1ccc(C(=O)CCCN2CCC(O)(c3ccc(Cl)cc3)CC2)cc1 |  |  |  |  | 290 µM
C[C@@H]1CC[C@]2(C(=O)O)CC[C@]3(C)C(=CC[C@@H]4[C@@]5(C)CC[C@@H](O)C(C)(C)[C@@H]5CC[C@]43C)[C@@H]2[C@]1(C)O |  |  | HPLC |  | >17.9 µg/mL
CC(C)(C)OC(=O)N[C@@H](Cc1ccccc1)[C@@H](O)C[C@@H](Cc1ccc(OCC(=O)O)cc1)C(=O)N[C@H]1c2ccccc2C[C@H]1O |  |  | absorbance |  | 0.00004 µM
CC(=O)N[C@@H](Cc1ccccc1)C(=O)N[C@@H](CO)C(=O)N[C@@H](Cc1ccc(O)cc1)C(=O)N[C@@H](CCC(=O)O)C(=O)N[C@@H](CC(C)C)C(=O)O |  |  | fluorescence |  | 0.9 µM
CCCCN(CCCC)c1cccc(C2(O)CCN(CCCC(=O)c3ccc(NC4CCCCC4)cc3)CC2)c1 |  |  |  |  | 530 µM

A second listing of 4 rows from above:

SMILES	strain or isolate	changes	method	conditions	result
Cc1ccc(C(=O)N2CCc3ccccc3C2)cc1C(=O)N[C@@H](Cc1ccccc1)[C@@H](O)Cc1ccccc1C(=O)NC(C)(C)C			fluorescence		0.4 µg/mL
COc1ccc2nc(N/C(=N/[C@@H]3OC[C@@H](OC(C)=O)[C@H](OC(C)=O)[C@H]3OC(C)=O)NC(C)C)sc2c1					79.64 µg/mL
CCCCN(CCCC)c1cccc(C2(O)CCN(CCCC(=O)c3ccc(NC4CCCCC4)cc3)CC2)c1					530 µM
Cc1ccc(C(=O)N(C)Cc2ccccn2)cc1C(=O)N[C@@H](CSc1ccc2ccccc2c1)[C@@H](O)CN1C[C@H]2CCCC[C@H]2C[C@H]1C(=O)NC(C)(C)C			fluorescence		0.0113 µg/mL

Two numbers with a dash give a range or band. Neighbouring rows are from separate reports. An empty or dashed field is not shown.